Test results as given in patent US20150086555A1 (THERACLONE SCIENCES, published 2015).
Substitutions are numbered along the chain they refer to.

B1: TCN-558 (5248_H10b) (antibody, V domains shown)
VH: QVQLVQSGSEVKKPGTSVKVSCTASGSVFTNYGISWVRQAPGQGLEWMGGIIPLFGAAKYAQKFQGRVTITADESTKTVYMELSRLTSKDTAIYFCAKAPRVYEYYFDQWGQGTPVTVSS
VL: EIVMTQFPATLSVSPGERVTLSCRASQSVSNNLAWYQQKPGQPPRLLIYDASTRATGVPAKFSGTGSGTEFTLSISSLQSEDFAVYYCQQYHNWPPSYSFGLGTKLEIK
B2: TCN-545 (5082_I15) (antibody, V domains shown)
VH: QVQLQQWGAGLLKPSETLSLSCAVFGGSFSDYYWTWIRQPPGKGLEWIGEIKHSGRTNYNPSLESRVTISVDTSKNQFSLKLSSVTAADTAIYYCARGTDPDTEGYCRSGSCSAFDFWGQGTLVTVSS
VL: EIVLTQSPGTLSLSPGERATLSCRASHFVNYRSLAWYQQTPGQVPRLLIYGASTRATGIPDRFSGSGSGTDFTLTISRLEPEDFAVYFCQQYGGSPRYTFGQGTRLEIK
B3: TCN-544 (5082_A19) (antibody, V domains shown)
VH: QVQLQESGPGLVKPSETLSLTCTVSRGSIGHYFWSWIRQPPGKGLEWIGYISYSGSTKYNPSLRSRVTISVDTSKNQFSLNLNSVTATDTALYYCAREDYDILTGAGPGMEVWGQGTTVTVSS
VL: QSMLTQPPSASGTPGQRVTISCSGSSSNIGSNTVNWFKHLPGTAPKLLIYRNDLRPSGVPDRFSGSKSGTSASLAISGLQSEDEADYYCATWDDSLNGFYVFGTGTKVTVL
B4: TCN-553 (5261_C18) (antibody, V domains shown)
VH: QVQVVQSGTEVKKPGSSVKVSCQTSGGRFMSYAITWVRQAPGQGLEWMGGIVPVFGTANYAQKFQGRVTITTDDSTRTAYMELSSLRSEDTAVYYCGFRYGSGYGFDSWGQGTLVTVSS
VL: EIVLTQSPGTLSLSPGERATLSCRASQSVSSSYLAWYQKKPGQAPRLLIYGASTRATGIPDRFTGSGSGTDFTLSISRLEPEDFAVYYCQHFGTSVFTFGGGTKVEIK
B5: TCN-550 (5096_F06) (antibody, V domains shown)
VH: QVQLQESGPGLVKPSETLSLTCTVSGASINSHYWSWIRQPPGKGLEWIGYVYYSGSTTYNPSLKSRVTLSVDTSKNQFSLNLSSVTAADTAFYYCARHPYDVLTGSGDWFDPWGQGTLVTVSS
VL: SYVLTQAPSVSVAPGQTARITCGGNAIGSKKVHWYQHKAGQAPVLVVYDDTDRPSGIPERFSGSNSWSTATLTINRVEAGDEADYYCQVWDFTIDHVVFGGGTKLTVL
B6: TCN-554 (5277_M05) (antibody, V domains shown)
VH: QVQLVQSGADLKKPGASVKVSCKASGYTFTDYYIHWVRQAPGQGLEWMGWINPESGDTKYAQKFQGRVTMTRDTSITTAYMELGRLRSDDTAVYYCARDVSTTWSWFAPWGQGTLVTVSS
VL: DIVMTQSPDSLAVSLGERATINCRSSQSIFHNSNNENYLAWYQQKPGQPPKLLIYWASTRESGVPDRFSGSGSGTDFTLTISSLQAEDVAVYFCQQYYNAPLTFGGGTKVEIK
B7: TCN-543 (5081_G23) (antibody, V domains shown)
VH: QVHLVQSGAEVRKPGDSVKVSCKTSGYTFSTYPVAWVRQVPGQGLEWMGWISTYNGNTNFAQNFQGRVTLTTDTTTNTAYMEVRSLKFDDTAVYYCARVEGSYRDFWNNQNRFDPWGQGTLVTVSS
VL: SYVLTQPPSVSVAPGQTARISCGGSNIGGKSVHWYQQKPGQAPVLVVYDDSGRPSGIPERFSGSNSGDTATLTISRVEAGDEADYFCQVWDNFGGVFGTGTKVTVL
B8: TCN-551 (5243_D01) (antibody, V domains shown)
VH: EVQLVQSGSEVKKPGESLKISCKGSGYSFSNYWIGWVRHMPGKGLEWMGIIYPGDSDTRYSPSFQGQVTMSADKSSSTVYLQWSSLKASDTAIYYCARRGGHSFGYGSGGDTHSEFDSWGQGTLVTVSS
VL: QSVLTQSPSVSAAPGQKVTISCSGSDSNIGDYFVCWYQHLPGKPPQLLIYENNKRPSGIPDRFSGSKSGTSATLGITGIQTGDEADYYCATWDGSLSAWVFGGGTKLTVL
B9: TCN-555 (5246_L16) (antibody, V domains shown)
VH: QVQLVQSGAEVKRPGSSVKVSCTASGGIFRKNAISWVRQAPGQGLEWMGGIIAVFNTANYAQKFQNRVKITADESGNTAYMELSSLTSDDTAVYYCASHPKYFYGSGSYPDFWGQGTLVTVSS
VL: QSALTQPRSVSGSPGQSITISCTGGSSDIGASNSVSWYQQHPGKAPKLVIFDVTERPSGVPHRFSGSKSGNTASLTVSGLQPDDEADYFCCAYGGKYLVVFGGGTKVTVL
B10: TCN-563 (5237_B21) (antibody, V domains shown)
VH: B9 VH with V5A, N66G, T87R
VL: B9 VL with I18V, G25S, I29V, F51Y, D83E
B11: TCN-552 (5249_I23) (antibody, V domains shown)
VH: QVQVVQSGAEVKKPGSSVRVSCQASGGTFMNYAIIWVRRAPGQGLEWMGGIIPVFPTPNYAQMFQGRVTISTDESRSTSFLELTNLRYEDTAVYYCARRIYHGGNSGFDFWGQGTLVTVSS
VL: EIVLTQSPATLSLSPGERATLSCRASQSVGNYLAWYQQKPGQAPRLLIYDSSNRAPGIPARFSGSGSGTDFTLTISSLAPEDFAVYYCQQRSKWPPMYSFGHGTKLEIK
B12: TCN-539 (5056_A08) (antibody, V domains shown)
VH: QVQLVESGGGVVQPGRSLRLSCAASEITFITYAMHWVRQAPGKGLEWVALISDDGSNKFYADSVKGRFTISRDNSKNTLYLQMNSLRAEDTAAYYCAREGVYFDSGTYRGYFDYWGQETLVTVSS
VL: EIVLTQSPATLSLSPGERATLSCRASQSVSSYLAWYQQKPGQAPRLLIYDASNRATGIPARFSGSGSGTDFTLTISSLEPEDFAVYYCQQRSHWPPITFGQGTRLEIK
B13: TCN-540 (5060_F05) (antibody, V domains shown)
VH: QVQLVQSGGGVVQPGRSLRLSCAASGFTFSSYAMHWVRQAPGKGLEWVAIISYDGNDQYYTDSVKGRFTISRDSSKVYLQMHRLRPEDTAVYYCAKEFETSGYFHGSFDYWGQGILVTVSS
VL: QSALTQPASVSGSPGQSITISCTGTSSDVGGYNYVSWYQQHPGKAPKLLIYEVTNWPSGVSNRFSGSKSGNTASLTISGLQAEDEADYYCSSYAGSSTWVFGGGTRVTVL

target: hemagglutinin on whole inactivated influenza A virions, A/Japan/305/57 H2N2 (Influenza A virus A/Japan/305/1957(H2N2))

Row | Binder | ELISA: Virus Binding (OD450)
1 | B1 | 3.45
2 | B2 | 0.06
3 | B3 | 0.07
4 | B4 | 3.49
5 | B5 | 0.17
6 | B6 | 0.07
7 | B7 | 3.64
8 | B8 | 0.06
9 | B9 | 3.4
10 | B10 | 3.16
11 | B11 | 3.41
12 | B12 | 0.06
13 | B13 | 3.63
